Anti-infective test results gathered from many reports (values: NIAID ChemDB through PubChem).

Common to all: growth or infection tests; agent: HIV-1; read-out: fold resistance

Conditions beyond the fields shown may differ between rows. Blank or dashed fields: not listed here. Fold resistance: result on the changed form divided by that on wild type.

compound	cells	strain or isolate	read by	mutations	result
C=C(C)OC(=O)N1c2cc(Cl)ccc2NC(=S)C1(C)C	CEM	HEPT (RT Y188H)	syncytia	RT-Y188H	78.6
C[C@H](Cn1cnc2c(N)ncnc21)OCP(=O)(O)O	MT-2	M184V (3TC-resistant RT M184V)	p24	RT-M184V	0.706
Fc1cccc(F)c1C1SCc2nc3ccccc3n21	-	IIIB	cytopathic effect / MTT	RT-E138K	1.24
O=S(=O)(c1ccccc1)c1ccccc1	CEM + CEM-SS	UC38-R(RT-Y181C	cytopathic effect / XTT	RT-Y181C	8
CC(C)CN(C[C@@H](O)[C@H](Cc1ccccc1)NC(=O)O[C@H]1CCOC1)S(=O)(=O)c1ccc(N)cc1	PBMC	TM	p24	PR-L10I K14R R41K M46I I54V L63P A71V V82A L90M I93L	24
Cc1cn([C@H]2C[C@H](N=[N+]=[N-])[C@@H](CO)O2)c(=O)[nH]c1=O	HeLa	NRTI resistant	luciferase	RT-M41L D67N M184V L210W T215Y	13.2
Cc1cc(S(N)(=O)=O)ccc1NC(=O)COc1ccc(Cl)cc1C(=O)c1cc(Cl)cc(C#N)c1	MAGI	NNRTI-resistant (RT Y188L)	β-galactosidase	RT-Y188L	40.4
Cn1c2ccccc2c2c1cc(C#N)c(=O)n2-c1ccc([N+](=O)[O-])cc1	HeLa	NNRTI-resistant	luciferase	RT-K103N Y188L	0.3
Cc1ccnc2c1NC(=O)c1cccnc1N2C1CC1	CEM + CEM-SS	E BPTU-resistant (RT Y181C)	XTT	RT-Y181C	190
Cc1c(Sc2ccccc2)n(COCCO)c(=O)[nH]c1=O	CEM + CEM-SS	UC38-R(RT-Y181C	cytopathic effect / XTT	RT-Y181C	57
Cc1occc1C(=S)Nc1ccc(Cl)c(/C=N/OC(C)(C)C)c1	CEM + CEM-SS	Dihydrocostatolide-resistant (RT-L100I)	cytopathic effect / XTT	RT-L100I	10
Nc1nc2c(ncn2[C@H]2CO[C@@H](CO)O2)c(=O)[nH]1	MT-2	-	-	RT-M41L K70R T215Y K219Q	1.22
Cc1ccc(NC(=S)NC[C@H](C)c2ccccc2)nc1	PBMC	NNRTI-resistant (RT Y181C K103N) A17V	p24	RT-Y181C K103N	613
Cc1cn([C@H]2C[C@H](N=[N+]=[N-])[C@@H](CO)O2)c(=O)[nH]c1=O	HT4LACZ-1 + HT4 LacZ-1	HX88C (RT-W88C)	-	RT-W88C	0.7
CO[C@H]1O[C@@H](n2ccc(=O)[nH]c2=O)C[C@@H]1N=[N+]=[N-]	MT-2	PD165BC(RT-L92I)	RT activity	RT-L92I	0.084
CC(C)=CCN1Cc2cc(Cl)cc3[nH]c(=S)n(c23)C[C@@H]1C	CEM	IIIB	p24	RT-G190E	≥250
Cc1nnc(C[C@H](C[C@H](O)CN2CCN(C(C)(C)c3ncc(-c4ccc(F)cc4)o3)C[C@H]2C(=O)NCC(F)(F)F)C(=O)N[C@H]2c3ccccc3OC[C@H]2O)o1	MT-4	V-18 Clinical isolate	p24	PR-L10I M36I N37D M46I R57K L63P A71V G73S I84V L90M I93L	0.504
CC1=C(C(=O)Nc2ccc(Cl)c(C(=O)OC(C)C)c2)SCCO1	CEM + CEM-SS	UC38-R(RT-Y181C	cytopathic effect / XTT	RT-Y181C	6
C[C@@H]1O[C@H]2OCCC[C@H]2[C@H]1OC(=O)N[C@@H](Cc1ccccc1)[C@H](O)CN1C[C@H]2CCCC[C@H]2C[C@H]1C(=O)NC(C)(C)C	PBMC	MM	p24	PR-L10I K43T M46I I54V L63P A71V V82A L90M Q92K	>4
O=c1[nH]cnc2c1ncn2[C@H]1CC[C@@H](CO)O1	MT-2	L214F(RT-L214F)	p24	RT-L214F	0.9
Cc1cn([C@@H]2O[C@H](CO[Si](C)(C)C(C)(C)C)C3(OS(=O)(=O)C=C3N)[C@H]2O[Si](C)(C)C(C)(C)C)c(=O)n(C)c1=O	CEM	IIIB	p24	RT-K103N	5.75
CCOCn1c(Sc2ccccc2)c(CC)c(=O)[nH]c1=S	CEM	IIIB	syncytia	RT-C181I	65
Nc1nc2c(ncn2[C@H]2CO[C@@H](CO)O2)c(=O)[nH]1	MT-2	LAI	p24	RT-D67N K70R T215Y K219Q L74V	3.7
C[C@H]1O[C@@H]2OCCC[C@@H]2[C@@H]1OC(=O)N[C@@H](Cc1ccccc1)[C@H](O)CN1C[C@H]2CCCC[C@H]2C[C@H]1C(=O)NC(C)(C)C	PBMC	MM	p24	PR-L10I K43T M46I I54V L63P A71V V82A L90M Q92K	>32
Nc1nc2c(ncn2[C@H]2CC[C@@H](CO)O2)c(=O)[nH]1	CEM	TIBO-2(RT-K103N)	syncytia	RT-K103N	1
CC(C)=CCN1Cc2cccc3[nH]c(=S)n(c23)C[C@@H]1C	CEM + CEM-SS	UC38-R(RT-Y181C	cytopathic effect / XTT	RT-Y181C	1.8
O=C1O[C@H]2[C@@H]3OC(=O)c4cc(O)c(O)c(O)c4-c4c(cc(O)c(O)c4O)C(=O)OC[C@H]2O[C@@H](OC(=O)c2cc(O)c(O)c(O)c2)[C@@H]3OC(=O)c2cc(O)c(O)c3c2[C@@H]2C1=CC(=O)[C@](O)(O3)C2(O)O	MAGI	NRTI resistant (RT K65R M184V) ARP1006	-	RT-K65R M184V	3.24
Cc1cn([C@H]2C=C[C@@H](CO)O2)c(=O)[nH]c1=O	HeLa	Recombinant	luciferase	RT-M41L A62V S68N G112S M184V	0.4
Cc1cn([C@H]2C[C@H](N=[N+]=[N-])[C@@H](CO)O2)c(=O)[nH]c1=O	MT-2	LAI	p24	RT-D67N K70R T215Y K219Q K65R	1.3
C[C@@H](CNC(=S)Nc1ccccn1)c1ccccc1	PBMC	NNRTI-resistant (RT Y181C) A17	p24	RT-Y181C	83
O=C(N[C@H]1c2ccccc2OC[C@H]1O)[C@H](Cc1nnco1)C[C@H](O)CN1CCN(Cc2ccc(-c3ccc(Cl)cc3)o2)C[C@H]1C(=O)NCC(F)(F)F	MT-4	K-60 Clinical isolate	p24	PR-L10I M46I I54V Q58E L63P I64V V77I V82F I84V L90M I93L	1
Cc1cn([C@H]2C[C@H](N=[N+]=[N-])[C@@H](CO)O2)c(=O)[nH]c1=O	MT-4	HXB2-D294 (RT-P294S)	RT activity	RT-P294S	1.3
Cc1ccnc2c1NC(=O)c1cccnc1N2C1CC1	CEM + CEM-SS	NL4-3	cytopathic effect / XTT	RT-V106A	>100
Nc1ncnc2c1ncn2CCOCP(=O)(O)O	MT-2	RT P119S L214F	p24	RT-P119S L214F	1.3
Cc1cn([C@H]2C[C@H](N=[N+]=[N-])[C@@H](CO)O2)c(=O)[nH]c1=O	CEM + CEM-SS	NL4-3	XTT	RT-L74V	5
Cc1cn([C@@H]2O[C@H](CO[Si](C)(C)C(C)(C)C)C3(OS(=O)(=O)C=C3N)[C@H]2O[Si](C)(C)C(C)(C)C)c(=O)n(C)c1=O	CEM	TIBO-1(RT-L100I)	syncytia	RT-L100I	1.75
O=c1[nH]cnc2c1ncn2[C@H]1CC[C@@H](CO)O1	HT4 + HT4 LacZ-1	RTMN(181 184) (RT M41L Y181C M184V T215Y)	plaque count	RT-M41L Y181C M184V T215Y	2.06
Cc1cn([C@@H]2O[C@H](CO[Si](C)(C)C(C)(C)C)[C@@]3(OS(=O)(=O)C=C3N)[C@H]2O[Si](C)(C)C(C)(C)C)c(=O)[nH]c1=O	CEM	IIIB	syncytia	RT-Y181C	60
C#C[C@@]1(CO)C=C[C@H](n2cc(C)c(=O)[nH]c2=O)O1	MAGI (CCR5) + MAGI	HXB2	β-galactosidase	RT-K103N	0.3
CCCc1nnc(C[C@H](C[C@H](O)CN2CCN(C(C)(C)c3ncc(-c4ccc(Cl)cc4)o3)C[C@H]2C(=O)NCC(F)(F)F)C(=O)N[C@H]2c3ccccc3OC[C@H]2O)o1	MT-4	V-18 Clinical isolate	p24	PR-L10I M36I N37D M46I R57K L63P A71V G73S I84V L90M I93L	≥7.875
Cn1c2ccccc2c2c1cc(C#N)c(=O)n2-c1ccc([N+](=O)[O-])cc1	MT-2	HXB2	-	Remodeled TAMs (K70G V75T L228R K219R)	0.2
CCCc1nnc(C[C@H](C[C@H](O)CN2CCN(C(C)(C)c3ncc(-c4cncc(OC)c4)o3)C[C@H]2C(=O)NCC(F)(F)F)C(=O)N[C@H]2c3ccccc3OC[C@H]2O)o1	MT-4	V-18 Clinical isolate	p24	PR-L10I M36I N37D M46I R57K L63P A71V G73S I84V L90M I93L	>2
Cc1cn([C@H]2C[C@H](F)[C@@H](CO)O2)c(=O)[nH]c1=O	PBMC	RS NRTI-MDR (RT M41L M43E E44A D67N V118I M184V L210W T215Y K219N)	antigen	RT-M41L M43E E44D/A D67N V118I M184V L210W T215Y K219N	1.1
Cc1cn([C@H]2C=C[C@@H](CO)O2)c(=O)[nH]c1=O	MAGI (CCR5) + MAGI	NL4-3	β-galactosidase	RT-M184V	0.88
COc1ccc2c(c1)N(C(=O)OC(C)C)[C@@H](CSC)C(=S)N2	CEM	IIIB	p24	RT-V106A	2
Cc1cn([C@H]2C[C@H](N=[N+]=[N-])[C@@H](CO)O2)c(=O)[nH]c1=O	MT-2	T215Y(RT-T215Y)	p24	RT-T215Y	5.6
Nc1ccn([C@H]2CC[C@@H](CO)O2)c(=O)n1	HT4 + HT4 LacZ-1	RTMN(181 184) (RT M41L Y181C M184V T215Y)	plaque count	RT-M41L Y181C M184V T215Y	3.92
CC(C)Nc1cccnc1N1CCN(C(=O)c2cc3ccccc3[nH]2)CC1	CEM	IIIB	syncytia	RT-C181I	>187.5
C[C@H](CNC(=S)Nc1ccc(Br)cn1)c1ccccc1	PBMC	NNRTI-resistant (RT Y181C K103N) A17V	p24	RT-Y181C K103N	41
Cc1cn([C@H]2C[C@H](N=[N+]=[N-])[C@@H](CO)O2)c(=O)[nH]c1=O	CEM + CEM-SS	NL4-3	cytopathic effect / XTT	RT-A98G	3.33
Cc1occc1C(=S)Nc1ccc(Cl)c(/C=N/OC(C)(C)C)c1	CEM	IIIB	p24	RT-Y181C	1.5
Cc1csc(NC(=S)N[C@H](C)c2cccc3ccccc23)n1	PBMC	NNRTI-resistant (RT Y181C) A17	p24	RT-Y181C	145
O=c1[nH]cnc2c1ncn2[C@H]1CC[C@@H](CO)O1	MT-2	HX(RT-S156A)	RT activity	RT-S156A	1.125
Cc1cn([C@H]2C[C@H](N=[N+]=[N-])[C@@H](CO)O2)c(=O)[nH]c1=O	MT-2	NL4-3	p24	RT-V75T	1
O=C(O)P(=O)(O)O	MT-2	LAI	p24	RT-K65R	3
CC(C)=CCN1Cc2cc(Cl)cc3[nH]c(=S)n(c23)C[C@@H]1C	CEM	IIIB	syncytia	RT-Y181C	78.3

The first 8 rows once more:

C=C(C)OC(=O)N1c2cc(Cl)ccc2NC(=S)C1(C)C ; cells: CEM ; strain or isolate: HEPT (RT Y188H) ; read by: syncytia ; mutations: RT-Y188H ; result: 78.6
C[C@H](Cn1cnc2c(N)ncnc21)OCP(=O)(O)O ; cells: MT-2 ; strain or isolate: M184V (3TC-resistant RT M184V) ; read by: p24 ; mutations: RT-M184V ; result: 0.706
Fc1cccc(F)c1C1SCc2nc3ccccc3n21 ; strain or isolate: IIIB ; read by: cytopathic effect / MTT ; mutations: RT-E138K ; result: 1.24
O=S(=O)(c1ccccc1)c1ccccc1 ; cells: CEM + CEM-SS ; strain or isolate: UC38-R(RT-Y181C ; read by: cytopathic effect / XTT ; mutations: RT-Y181C ; result: 8
CC(C)CN(C[C@@H](O)[C@H](Cc1ccccc1)NC(=O)O[C@H]1CCOC1)S(=O)(=O)c1ccc(N)cc1 ; cells: PBMC ; strain or isolate: TM ; read by: p24 ; mutations: PR-L10I K14R R41K M46I I54V L63P A71V V82A L90M I93L ; result: 24
Cc1cn([C@H]2C[C@H](N=[N+]=[N-])[C@@H](CO)O2)c(=O)[nH]c1=O ; cells: HeLa ; strain or isolate: NRTI resistant ; read by: luciferase ; mutations: RT-M41L D67N M184V L210W T215Y ; result: 13.2
Cc1cc(S(N)(=O)=O)ccc1NC(=O)COc1ccc(Cl)cc1C(=O)c1cc(Cl)cc(C#N)c1 ; cells: MAGI ; strain or isolate: NNRTI-resistant (RT Y188L) ; read by: β-galactosidase ; mutations: RT-Y188L ; result: 40.4
Cn1c2ccccc2c2c1cc(C#N)c(=O)n2-c1ccc([N+](=O)[O-])cc1 ; cells: HeLa ; strain or isolate: NNRTI-resistant ; read by: luciferase ; mutations: RT-K103N Y188L ; result: 0.3